Laboratory results taken from article PMC3735122 (mBio, 2013).
pIC50: −log10 of the molar value.

How the values were obtained:
[1] = molecular target: RG-A/CA/04/09 neuraminidase (Influenza A virus (A/California/04/2009(H1N1)), UniProt C3W5S3); conditions: read-out: IC50 value [mean (95% CI)]
[2] = molecular target: RG-A/CA/04/09 NA^H274Y neuraminidase (Influenza A virus (A/California/04/2009(H1N1)), UniProt C3W5S3, H275Y); assay: biochemical

## CC(=O)N[C@H]1[C@H]([C@H](O)[C@H](O)CO)OC(C(=O)O)=C[C@@H]1N=C(N)N [zanamivir]
[1]
  pIC50: 9.28
[2]
  pIC50: 9.06
